Compound potency records, mixed from different reports. Data source: NIAID ChemDB in PubChem.

Common to all: tests in culture; species: Rhinovirus; measure: EC50

ECn is the concentration giving n% inhibition of infection, replication or growth. Neighbouring rows are from separate reports. Blank or dashed fields: not listed here. a–b is a range or a potency band.

SMILES,strain or isolate,cells,read by,value
COc1ccc(N2CCN(c3cccc(C)c3)CC2)nn1,TYPE 2,HeLa,cytopathic effect,0.032 µg/mL
CCO/N=C/c1ccc(OCCC2CCN(c3ccc(C)nn3)CC2)cc1,TYPE 14,MRC-5,cytopathic effect / visual reading,0.0009–0.0018 µg/mL
O=C1O[C@H]([C@@H](O)CO)C(O)=C1O,-,HeLa,-,<3.1 µg/mL
Oc1ccc2oc3ccccc3c2c1,TYPE 14,HELA-H1,cytopathic effect,70 µM
C#CC[C@H](CC(=O)c1ccc(-c2ccccc2C(F)(F)F)[nH]1)C(=O)N[C@H](/C=C/C(=O)OCC)C[C@@H]1CCNC1=O,Serotype 14,H1-HELA,XTT,0.17 µM
CC(=O)NC[C@@H](C=O)NC(=O)[C@H](Cc1ccccc1)NC(=O)[C@H](CC(C)C)NC(=O)OCc1ccccc1,TYPE 14,H1-HELA,-,2.4 µM
CCOc1cc(O)c(C(=O)/C=C/c2ccc(OC)cc2)c(OC)c1,TYPE 2,HeLa,cytopathic effect,0.001–0.002 µg/mL
Cc1c(C)c2c(c(C)c1O)CCC(C)(C(=O)O)O2,-,HeLa,-,<31 µM
COc1cc(O)c(CC=C(C)C)c(O)c1C(=O)/C=C/c1ccc(O)cc1,TYPE 14,VERO,cytopathic effect,>2.2 µg/mL
Cc1cc(O)c2c(c1)C(=O)c1cccc(O)c1C2=O,TYPE 2,HEL,cytopathic effect,>25 µg/mL
NC(=O)c1nc(F)c[nH]c1=O,-,HeLa,plaque count,23 µg/mL
Nc1ccn([C@@H]2C[C@H](CO)[C@@H](O)[C@H]2O)c(=O)n1,TYPE 1A,WI-38,cytopathic effect,>100 µg/mL
Cc1cc(CCCOc2c(C)cc(-c3nnn(C)n3)cc2C)on1,TYPE 1A,HELA-OHIO,plaque count,0.11 µM
CO/N=C/c1ccc(OCCC2CCN(c3ccc(Cl)nn3)CC2)c(C)c1,TYPE 1A,KB,cytopathic effect / visual reading,<0.003 µg/mL
Nc1ncnc2c1ncn2[C@@H]1C[C@@H](O)[C@H](CO)O1,TYPE 5,KB,-,>100 µM
CCO/N=C/c1ccc(OCCC2CCN(c3ccc(C)nn3)CC2)cc1,1983-CV48 (ICAM-1 receptor group 66),KB,neutral red,0.001 µM
CCOc1cc(O)c(C(=O)NCc2ccc(OC)cc2)c(OC)c1,TYPE 2,HeLa,cytopathic effect,0.002 µg/mL
CC(C)S(=O)(=O)n1c(N)nc2ccc(/C(=N/O)c3ccccc3)cc21,Serotype 65,HeLa,plaque count,<0.01 µg/mL
Nc1ccn([C@@H]2C[C@@H](O)[C@H](CO)O2)c(=O)n1,TYPE 5,KB,-,>100 µM
C#CC[C@@H](C(=O)N[C@H](/C=C/C(=O)OCC)C[C@@H]1CCNC1=O)n1cccc(NC(=O)c2cc(C)on2)c1=O,Serotype 17,H1-HELA,cytopathic effect / XTT,0.023 µM
Clc1ccc(C2CCc3ccccc3O2)c(Cl)c1,TYPE 9,HeLa,cytopathic effect,0.25 µg/mL
O=C(O)c1cc2oc3ccccc3c2cc1O,TYPE 14,HELA-H1,cytopathic effect,25 µM
CCOc1cc(O)c(C(=O)NCc2ccc(NC)cc2)c(OC)c1,TYPE 9,HeLa,cytopathic effect,0.0037 µg/mL
CCOC(=O)/C=C/[C@H](C[C@@H]1CCNC1=O)NC(=O)[C@@H](CC(=O)[C@@H](NC(=O)c1cc(C)on1)C(C)C)Cc1ccc(F)cc1,-,HeLa,-,0.013 µM

Again, the opening 2 rows:

SMILES | strain or isolate | cells | read by | value
COc1ccc(N2CCN(c3cccc(C)c3)CC2)nn1 | TYPE 2 | HeLa | cytopathic effect | 0.032 µg/mL
CCO/N=C/c1ccc(OCCC2CCN(c3ccc(C)nn3)CC2)cc1 | TYPE 14 | MRC-5 | cytopathic effect / visual reading | 0.0009–0.0018 µg/mL